The nature of one series: Deodorizing effect test. The settings on record: 1% aqueous solution sprayed (0.94 mL) into 4 L bag; initial 50 ppm (Ex. 10: 60 ppm).
Series [1] can be described thus: Detergency against dirt on the floor. Further details: key: Excellent: Obviously superior to POE (20 EO) lauryl ether; Good: Comparable to POE (20 EO) lauryl ether; Fair: Slightly inferior to POE (20 EO) lauryl ether; Poor: Obviously inferior to POE (20 EO) lauryl ether. The conditions noted are these: 0.2% aqueous solution, pH 7.2, room temperature, 3 panel members averaged.

In series [2] the test system is standard activated sludge. Briefly: Biodegradability test (biochemical oxygen consumption).
Where [3] appears, read: activated sludge 30 mg/L, 25±1° C., listed as ozonized surfactant.

Where “and” joins values, the source holds several entries; their conditions need not be identical. Equal entries are not always repeated.

With “Ozonized POE sorbitan monooleate (20 EO) [Example 7]”, the “Ammonia concentration, 5 min after spraying” value (from here on “Ammonia concentration, 5 min”) in the series “Deodorizing effect test” is recorded as 0 ppm. The “Detergency against dirt on the floor (Visually observed)” value (shortened to “Detergency against dirt on the floor”) in series [1] is “Excellent”.

POE (20 EO) lauryl ether: the “Detergency against dirt on the floor” value in series [1] is “Good (benchmark)”.

As for polyethylene glycol monooleate, in “Deodorizing effect test”, the “Ammonia concentration, 5 min” value is given as 30 ppm and the “Ammonia concentration, 40 min after spraying” value (“Ammonia concentration, 40 min” for short) worked out at 20 ppm. In addition, in series [1], the “Detergency against dirt on the floor” value is reported as “Good”.

“sodium alpha-olefin sulfonate [Unozonized surfactant of Ex. 9]”: in “Deodorizing effect test”, the “Ammonia concentration, 5 min” value is 25 ppm and the “Ammonia concentration, 40 min” value worked out at 20 ppm.

As to “Ozonized POE (10 EO) oleyl ether [Example 4]”, in series [2] (setting [3]), the “Degradation, Day 7” value is 24% and 21% and 23%; the “Degradation, Day 14” value is 31% and 28% and 30%; the “Degradation, Day 15” value was 40% and 38% and 37%; the “Degradation, Day 28” value is 46% and 41% and 39%. Besides, in series [2] (in 28 days), the “average degradation based on the oxygen demand” value is recorded as 42%. Further, the “Detergency against dirt on the floor” value in series [1] is given as “Good to Excellent”.

Consider “Ozonized POE (20 EO) oleyl ether [Example 8]”, for which the “Detergency against dirt on the floor” value in series [1] was “Good to Excellent”.

As for POE (20 EO) oleyl ether, in series [1], the “Detergency against dirt on the floor” value was “Fair”.

Regarding POE sorbitan monooleate (20 EO), in “Deodorizing effect test”, the “Ammonia concentration, 5 min” value came to 30 ppm and the “Ammonia concentration, 40 min” value is 30 ppm. In addition, the “Detergency against dirt on the floor” value in series [1] is “Fair”.

Consider `CCCCCCCC/C=C\CCCCCCCC[N+](C)(C)CCCCCCCC/C=C\CCCCCCCC.[Cl-]` [Unozonized surfactant of Ex. 10, dimethyldioleylammonium chloride], for which, in “Deodorizing effect test”, the “Ammonia concentration, 5 min” value was found to be 40 ppm and the “Ammonia concentration, 40 min” value turned out to be 40 ppm.

Regarding “Ozonized polyethylene glycol monooleate [Example 5]”, the “Ammonia concentration, 5 min” value in the series “Deodorizing effect test” was found to be 0 ppm. Further, the “Detergency against dirt on the floor” value in series [1] is “Good to Excellent”.

Source of the values: patent publication US20100254928A1, “NOVEL COMPOSITION CONTAINING OZONIZED SURFACTANT” (priority 2007, published 2010).
